A mixed list of measured activities; the numbers were collected in NIAID ChemDB.

Shared fields: tests in culture; species: HIV-1; measure: fold resistance

Lines come from different laboratories, so protocols vary.

{"SMILES": "CCCOC(=O)c1cc(NC(=O)C2=C(C)OCCS2)ccc1Cl", "method": "syncytia", "mutations": "RT-E138K", "strain": "TSAO-resistant (RT E138K)", "cell line": "CEM", "value": "200"}
{"SMILES": "Cc1cc(C#N)cc(C)c1Oc1nc(Nc2ccc(C#N)cc2)ncc1SCC(=O)NCCCN1CCOCC1", "method": "MTT", "mutations": "RES056", "cell line": "MT-4", "value": "130.4"}
{"SMILES": "Cc1cc(C)cc(Cc2c(C(C)C)c(=O)[nH]c(=O)n2COCCO)c1", "method": "syncytia", "mutations": "RT-Y181I", "strain": "IIIB", "cell line": "CEM", "value": ">58.8"}
{"SMILES": "Cc1cc(OCCCS(N)(=O)=O)ccc1NC(=O)COc1ccc(Cl)cc1C(=O)c1cc(F)cc(C(F)(F)F)c1", "method": "β-galactosidase", "mutations": "RT-Y188C", "strain": "HXB2", "cell line": "HeLa + HELA CD4+", "value": "~1"}
{"SMILES": "CCOCn1c(Sc2cc(C)cc(C)c2)c(CC)c(=O)[nH]c1=S", "method": "syncytia", "mutations": "RT-Y181C", "strain": "IIIB", "cell line": "CEM", "value": "30"}
{"SMILES": "CCC1=C(C(=O)Nc2ccc(Cl)c(C(=O)OC(C)C)c2)SCCO1", "method": "syncytia", "mutations": "RT-L100I", "strain": "TIBO-resistant (RT L100I)", "cell line": "CEM", "value": "15"}
{"SMILES": "O=C1Nc2ccc(F)c(F)c2[C@@](C#CC2CC2)(C(F)(F)F)N1", "mutations": "RT-V106A", "value": "<13.3"}
{"SMILES": "Cc1cc(C#N)cc(C)c1Oc1nc(Nc2ccc(C#N)cc2)ncc1SCC(=O)NCCN1CCN(C(=O)OC(C)(C)C)CC1", "method": "MTT", "mutations": "K103N", "cell line": "MT-4", "value": "0.9"}
{"SMILES": "Cc1ccc(NC(=O)CSc2nnc(C)n2-c2ccc(F)cc2)c(Cl)c1", "method": "luciferase", "mutations": "RT-K103N Y181C", "strain": "NL4-3", "cell line": "HeLa + HeLa-JC53", "value": ">4.3"}
{"SMILES": "CCN1c2ncc(CCOc3ccc(Nc4ccc(C(=O)O)cc4)cc3C)cc2C(=O)N(C)c2cccnc21", "method": "p24", "mutations": "RT-K103N Y181C", "cell line": "C8166", "value": ">1"}
{"SMILES": "O=C1Nc2ccc(Cl)cc2[C@@](/C=C/C2CC2)(C(F)(F)F)N1", "mutations": "RT-K103N V108I", "value": "47.5"}
{"SMILES": "Cc1cc(C#N)cc(C)c1Oc1nc(Nc2ccc(C#N)cc2)ncc1SCC(=O)NCC1CCCO1", "method": "MTT", "mutations": "F227L V106A", "cell line": "MT-4", "value": "38.9"}
{"SMILES": "N#Cc1cc2[nH]c3ccccc3c2n(-c2ccc([N+](=O)[O-])cc2)c1=O", "method": "cytopathic effect / MTT", "mutations": "RT-F227C", "strain": "E", "cell line": "MT-4", "value": "6"}
{"SMILES": "C[C@@H]1CCO[C@H]2Cn3cc(C(=O)NCc4ccc(F)cc4F)c(=O)c(O)c3C(=O)N12", "method": "luciferase / luminescence", "mutations": "I60M/V72I/L74F/V75I", "cell line": "TZM-bl", "value": "0.3"}
{"SMILES": "CSc1ccccc1NC(=O)CSc1nnc(C)n1-c1ccc(C)cc1", "method": "luciferase", "mutations": "RT-K103N Y181C", "strain": "NL4-3", "cell line": "HeLa + HeLa-JC53", "value": "200"}
{"SMILES": "O=C(O[C@@H]1[C@H](OC(=O)c2ccccc2)[C@@H](CO)O[C@H]1n1cnc2c(N(C(=O)c3ccccc3)C(=O)c3ccccc3)ncnc21)c1ccccc1", "method": "β-galactosidase", "mutations": "M184V", "strain": "NL4-3", "cell line": "HeLaP4", "value": "0.99"}
{"SMILES": "Cc1cc(C#N)cc(C)c1Oc1nc(Nc2ccc(C#N)cc2)ncc1SCC(=O)NC1CCN(C(=O)OC(C)(C)C)CC1", "method": "MTT", "mutations": "Y181C", "cell line": "MT-4", "value": "6.6"}
{"SMILES": "Cc1nnc(SCC(=O)Nc2ccccc2Br)n1-c1ccc(N(C)C)c2ccccc12", "method": "luciferase", "mutations": "RT-Y188L", "strain": "NL4-3", "cell line": "HeLa + HeLa-JC53", "value": "600"}
{"SMILES": "CCN1c2ncc(CCOc3ccc(NC(=O)Nc4ccc(C(=O)O)cc4)cc3C)cc2C(=O)N(C)c2cccnc21", "method": "p24", "mutations": "RT-K103N Y181C", "cell line": "C8166", "value": ">1"}
{"SMILES": "C#CCNC(=O)CSc1cnc(Nc2ccc(C#N)cc2)nc1Oc1c(C)cc(C#N)cc1C", "method": "MTT", "mutations": "RES056", "cell line": "MT-4", "value": "113.6"}
{"SMILES": "CCOC(=O)c1cc(NC(=O)C2=C(CC)OCCS2)ccc1Cl", "method": "syncytia", "mutations": "RT-V106A", "strain": "Nevirapine-resistant (RT V106A)", "cell line": "CEM", "value": "100"}
{"SMILES": "Cc1cc(C#N)cc(C(=O)c2cc(Cl)ccc2OCC(=O)Nc2ccc(S(N)(=O)=O)nc2C)c1", "method": "β-galactosidase", "mutations": "RT-V108I", "strain": "HXB2", "cell line": "HeLa + HELA CD4+", "value": "~1"}
{"SMILES": "COCCNC(=O)CSc1cnc(Nc2ccc(C#N)cc2)nc1Oc1c(C)cc(C#N)cc1C", "method": "MTT", "mutations": "K103N", "cell line": "MT-4", "value": "0.5"}
{"SMILES": "CCCCOC(=O)c1cc(NC(=O)C2=C(C)OCCS2)ccc1Cl", "method": "syncytia", "mutations": "RT-V106A", "strain": "Nevirapine-resistant (RT V106A)", "cell line": "CEM", "value": "150"}
{"SMILES": "CCN1c2ncc(CCOc3ccc(-c4ccc(C(=O)O)cc4)c(C)c3)cc2C(=O)N(C)c2cccnc21", "method": "p24", "mutations": "RT-K103N Y181C", "cell line": "C8166", "value": ">1"}
{"SMILES": "Cc1cc(C#N)cc(C)c1Oc1nc(Nc2ccc(C#N)cc2)ncc1SCC(=O)NCCN1CCOCC1", "method": "MTT", "mutations": "RES056", "cell line": "MT-4", "value": "3.7"}
{"SMILES": "Cc1cc(C)cc(C(=O)c2cc(Cl)ccc2OCC(=O)Nc2ccc(S(N)(=O)=O)cc2C)c1", "method": "β-galactosidase", "mutations": "RT-P236L", "strain": "HXB2", "cell line": "HeLa + HELA CD4+", "value": "~1"}
{"SMILES": "CC1=C(C(=O)Nc2ccc(Cl)c(C(=O)OC3CCCC3)c2)SCCO1", "method": "syncytia", "mutations": "RT-L100I", "strain": "TIBO-resistant (RT L100I)", "cell line": "CEM", "value": "125"}
{"SMILES": "Cc1ccc2c(C)cc(C)c(-n3c(C)nnc3SCC(=O)Nc3ccc(S(N)(=O)=O)cc3Cl)c2n1", "method": "luciferase", "mutations": "RT-Y188L", "strain": "NL4-3", "cell line": "HeLa + HeLa-JC53", "value": "16"}
{"SMILES": "Cn1c2ccccc2c2c1cc(C#N)c(=O)n2-c1ccc([N+](=O)[O-])cc1", "method": "cytopathic effect / MTT", "mutations": "RT-Y181C", "strain": "A", "cell line": "MT-4", "value": "4"}
{"SMILES": "Cc1ccc(-n2c(C)nnc2SCC(=O)Nc2ccccc2Br)c2ccccc12", "method": "luciferase", "mutations": "RT-K103N Y181C", "strain": "NL4-3", "cell line": "HeLa + HeLa-JC53", "value": "23"}
{"SMILES": "CCN1c2ncc(CCOc3ccc(-n4cc(C(=O)O)nn4)cc3C)cc2C(=O)N(C)c2cccnc21", "method": "p24", "mutations": "RT-K103N Y181C", "cell line": "C8166", "value": "1"}
{"SMILES": "CCc1c(Sc2cc(C)cc(C)c2)n(COCCO)c(=O)[nH]c1=O", "method": "syncytia", "mutations": "RT-Y188H", "strain": "IIIB", "cell line": "CEM", "value": "≥3330"}
{"SMILES": "CC1=C(C(=O)Nc2cc(C(=O)OC(C)C)c(C)cc2F)SCCO1", "method": "syncytia", "mutations": "RT-Y181C", "strain": "PYR-resistant (RT Y181C)", "cell line": "CEM", "value": ">4.35"}
{"SMILES": "CCN1c2ncc(CCOc3ccc(C(=O)N=c4ccccn4O)cc3C)cc2C(=O)Nc2c(C)ccnc21", "method": "p24", "mutations": "RT-K103N Y181C", "cell line": "C8166", "value": "1"}
{"SMILES": "COCC1=C(C(=O)Nc2ccc(Cl)c(C(=O)OC(C)C)c2)SCCO1", "method": "syncytia", "mutations": "RT-E138K", "strain": "TSAO-resistant (RT E138K)", "cell line": "CEM", "value": "5"}
{"SMILES": "N#Cc1cc(Cl)cc(Oc2c(Br)ccc(CC(=O)Nc3ccc(S(N)(=O)=O)cc3Cl)c2F)c1", "mutations": "V179F/Y181C", "cell line": "MT-4", "value": "<1"}
{"SMILES": "Cc1cc(S(N)(=O)=O)ccc1NC(=O)COc1ccc(Cl)cc1C(=O)c1cc(F)cc(F)c1", "method": "β-galactosidase", "mutations": "RT-K103N V108I", "strain": "HXB2", "cell line": "HeLa + HELA CD4+", "value": "~1"}
{"SMILES": "CC(C)c1c(Sc2ccccc2)n(COCCO)c(=O)[nH]c1=O", "method": "syncytia", "mutations": "RT-E138K", "strain": "IIIB", "cell line": "CEM", "value": "8.93"}
{"SMILES": "CCN1c2ncc(CCOc3ccc(C(=O)NN)cc3C)cc2C(=O)N(C)c2cccnc21", "method": "p24", "mutations": "RT-K103N Y181C", "cell line": "C8166", "value": "1"}
{"SMILES": "CC1=C(C(=O)Nc2cccc(C(=O)OC(C)C)c2)SCCO1", "method": "syncytia", "mutations": "RT-L100I", "strain": "TIBO-resistant (RT L100I)", "cell line": "CEM", "value": "2.25"}
{"SMILES": "Cc1cc(C#N)cc(C)c1Oc1nc(Nc2ccc(C#N)cc2)ncc1SCC(=O)NC1CC1", "method": "MTT", "mutations": "F227L V106A", "cell line": "MT-4", "value": "44.2"}

A second listing of 5 rows from above:

SMILES	method	mutations	strain	cell line	value
Cc1cc(C#N)cc(C)c1Oc1nc(Nc2ccc(C#N)cc2)ncc1SCC(=O)NC1CC1	MTT	F227L V106A		MT-4	44.2
Cc1ccc(NC(=O)CSc2nnc(C)n2-c2ccc(F)cc2)c(Cl)c1	luciferase	RT-K103N Y181C	NL4-3	HeLa + HeLa-JC53	>4.3
CCN1c2ncc(CCOc3ccc(-n4cc(C(=O)O)nn4)cc3C)cc2C(=O)N(C)c2cccnc21	p24	RT-K103N Y181C		C8166	1
COCCNC(=O)CSc1cnc(Nc2ccc(C#N)cc2)nc1Oc1c(C)cc(C#N)cc1C	MTT	K103N		MT-4	0.5
COCC1=C(C(=O)Nc2ccc(Cl)c(C(=O)OC(C)C)c2)SCCO1	syncytia	RT-E138K	TSAO-resistant (RT E138K)	CEM	5

Fold resistance has wild type as its base. An empty or dashed field is not shown.